Like-named read-outs stand apart in the source and are kept apart here. Marks after values point to notes of the source that are not given here.
Experiments:
[1] = tested on: human influenza virus H1N1 A/WSN/33 strain; conditions: for Cholesterol / Cholesterol, percentage compared to the mock treatment: IFV
PRRSV-RESP strain = test: Cholesterol content of treated PRRSV (Amplex Red cholesterol assay); conditions: 60 minutes at 37° C.
[2] = tested on: human influenza virus H1N1 A/WSN/33 strain; conditions: IFV, 50 mM MBCD
[3] = 10% DIPE, end-over-end rotation at 37° C. for 30 minutes

Q: What does the source list for `CC(C)OC(C)C` [DIPE, diisopropyl ether]?
A: cholesterol removed from IFV ([1]; 10% DIPE, 30 minute treatment): about 80%; cholesterol removed from IFV ([1]; 12% DIPE, 37° C., 30 minutes): about 80%; Cholesterol ([1]; 2% DIPE, 37° C., 30 minutes): 6.61 µg/mL; Cholesterol, percentage compared to the mock treatment ([1]; 2% DIPE, 37° C., 30 minutes): (80.0%) ^a; Cholesterol ([1]; 4% DIPE, 37° C., 30 minutes): 4.88 µg/mL; Cholesterol, percentage compared to the mock treatment ([1]; 4% DIPE, 37° C., 30 minutes): (59.1%) ^a; Cholesterol ([1]; 8% DIPE, 37° C., 30 minutes): 3.47 µg/mL; Cholesterol, percentage compared to the mock treatment ([1]; 8% DIPE, 37° C., 30 minutes): (42.0%) ^a; Cholesterol [1, 3]: 1.32 µg/mL; Cholesterol, percentage compared to the mock treatment [1, 3]: (21.4%) ^c; Cholesterol ([1]; 12% DIPE, 37° C., 30 minutes): 1.81 µg/mL; Cholesterol, percentage compared to the mock treatment ([1]; 12% DIPE, 37° C., 30 minutes): (21.9%) ^a

Q: With methyl β-cyclodextrin [MBCD] as the molecule, how does the Cholesterol ([1]; 50 mM MBCD, 37° C., 30 minutes) read?
A: 0.14 µg/mL

Q: And the Cholesterol ([1]; 50 mM MBCD, end-over-end rotation at 37° C. for 45 minutes)?
A: 0.15 µg/mL

Q: And the “Cholesterol Content” value (PRRSV-RESP strain; 5 mM MBCD)?
A: 9.82 µg/mL

Q: And the “Cholesterol Content, percentage compared to the mock treatment” value (“Cholesterol Content, percentage” below) (PRRSV-RESP strain; 5 mM MBCD)?
A: 84%

Q: What about the “Cholesterol Content” value (PRRSV-RESP strain; 10 mM MBCD) of the same molecule?
A: 4.66 µg/mL

Q: And the “Cholesterol Content, percentage” value (PRRSV-RESP strain; 10 mM MBCD)?
A: 40%

Q: What about the “Cholesterol Content” value (PRRSV-RESP strain; 20 mM MBCD) of the same molecule?
A: 4.46 µg/mL

Q: And the “Cholesterol Content, percentage” value (PRRSV-RESP strain; 20 mM MBCD)?
A: 38%

Q: And the “Cholesterol Content” value (PRRSV-RESP strain; 30 mM MBCD)?
A: 4.00 µg/mL

Q: And the “Cholesterol Content, percentage” value (PRRSV-RESP strain; 30 mM MBCD)?
A: 34%

Q: And the “Cholesterol Content” value (PRRSV-RESP strain; 50 mM MBCD)?
A: 3.29 µg/mL

Q: What about the Protein ([2]; 37° C., 30 minutes) of the same molecule?
A: 0.33 mg/mL

Q: And the protein content reduction ([2]; 45 minutes)?
A: 6%

Q: What about the Protein ([2]; end-over-end rotation at 37° C. for 45 minutes) of the same molecule?
A: 0.39 mg/mL

From patent US10420831B2, “Inactivation of viruses by delipidation” (priority 2016, dated 2019)
